Anti-infective test results gathered from many reports (values: NIAID ChemDB through PubChem).

Shared fields: enzyme or target tests

Inhibition is in % at the dose shown (toxicity tests: loss of growth or viability).

| smiles | dose | species | protein | measure | strain | result |
|---|---|---|---|---|---|---|
| CCC(CC)Nc1cc(C(=O)O)ccc1NC(C)=O | - | Influenza A virus | Neuraminidase | IC50 | H1N9 | 25 µM |
| Nc1nc([C@H](Cc2ccc(-c3nn[nH]n3)cc2)NC(=O)c2ccc3c(c2)nc(-c2ccoc2)n3C2CCCCC2)cs1 | - | Poliovirus | RNA-dependent RNA polymerase | IC50 | - | >25 µM |
| CCCCN(C)C(=O)C(NC(C)=O)[C@H]1CC(C(=O)O)C[C@@H]1N=C(N)N | - | Influenza A virus (H6N2) | Neuraminidase | IC50 | - | 2.4 µM |
| O=C(O)c1ccc2c(c1)nc(-c1ccccn1)n2C1CCCC1 | - | Poliovirus | RNA-dependent RNA polymerase | IC50 | - | >25 µM |
| CCC(CC)C(=O)Nc1cc(C(=O)O)ccc1NC(C)=O | - | Influenza A virus | Neuraminidase | IC50 | H1N9 | 27 µM |
| CCC(C)NC(=O)C(NC(C)=O)[C@H]1CC(C(=O)O)C[C@@H]1N=C(N)N | - | Influenza A virus (H6N2) | Neuraminidase | IC50 | - | 0.41 µM |
| Cc1cc(O)cc(C)c1CC(NC(=O)c1ccc2c(c1)nc(-c1ccoc1)n2C1CCCCC1)C(=O)O | - | Poliovirus | RNA-dependent RNA polymerase | IC50 | - | >25 µM |
| Cc1nc(N)c2ncn([C@@H]3O[C@H](COC(=O)c4ccc(S(=O)(=O)F)cc4)[C@@H](O)[C@H]3O)c2n1 | 300 µM | Japanese encephalitis virus | NTPase/helicase | inhibition | - | 52% |
| CC(=O)Nc1c(O)cc(C(=O)O)cc1[N+](=O)[O-] | - | Influenza A virus | Neuraminidase | IC50 | N2 (A/TOKYO/67) | 1000 µM |
| NC(=O)c1ncn([C@@H]2O[C@H](COC(=O)c3ccc(S(=O)(=O)F)cc3)[C@@H](O)[C@H]2O)n1 | 300 µM | Japanese encephalitis virus | NTPase/helicase | inhibition | - | 20% |
| CC(=O)NC(C(=O)N1CC(C)CC(C)C1)[C@H]1CC(C(=O)O)C[C@@H]1N=C(N)N | - | Influenza A virus (H6N2) | Neuraminidase | IC50 | - | 3.5 µM |
| O=C(O)c1ccc2[nH]cc(C[C@H](NC(=O)c3ccc4c(c3)nc(-c3ccoc3)n4C3CCCCC3)C(=O)O)c2c1 | - | Poliovirus | RNA-dependent RNA polymerase | IC50 | - | >25 µM |
| CCCC(C)NC(=O)C(NC(C)=O)[C@H]1CC(C(=O)O)C[C@@H]1N=C(N)N | - | Influenza A virus (H6N2) | Neuraminidase | IC50 | - | 3.2 µM |
| COC(=O)C1c2cc3c(c(O)c2C(O)CC1(C)O)C(=O)c1c(O)cc2c(c1C3=O)OC1OC2(C)C(O)C(N(C)C)C1O | - | Japanese encephalitis virus | NTPase/helicase | IC50 | - | 3.8 µM |
| O=C(COc1ccc(-c2nc3cc(C(=O)O)ccc3n2C2CCCCC2)cc1)NCc1ccccc1 | - | Poliovirus | RNA-dependent RNA polymerase | IC50 | - | >25 µM |

For reference, 2 entries again:

smiles,dose,species,protein,measure,strain,result
CC(=O)NC(C(=O)N1CC(C)CC(C)C1)[C@H]1CC(C(=O)O)C[C@@H]1N=C(N)N,-,Influenza A virus (H6N2),Neuraminidase,IC50,-,3.5 µM
CCCC(C)NC(=O)C(NC(C)=O)[C@H]1CC(C(=O)O)C[C@@H]1N=C(N)N,-,Influenza A virus (H6N2),Neuraminidase,IC50,-,3.2 µM

ICn is the concentration giving n% inhibition. Blank or dashed fields: not listed here. Rows are shuffled and stem from different studies.